# This is a selection; strong and weak results do not stand in their true shares. Calls of active or inactive are those of the source.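 How the source made its calls: active means plate passing quality check with inhibition over a set limit, or well fluorescence over plate mean plus 4 SD; inactive means the rest.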
# Test: inhibitors of Candida efflux pumps in yeast, primary screen, S. cerevisiae, Nile Red, multiplex (AID 485275);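 further: Nile Red retained in pooled yeast measured as flow cytometry median fluorescence; 0% = buffer negative control and 100% = Enniatin B positive control; higher means more Nile Red kept so more efflux inhibition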
# Settings: S. cerevisiae Candida pump triplex, at 10 µM, hits give high values
row,Compound,inhibition
1,Nc1cccc2ccc([As](=O)(O)O)cc12,inactive: 0.27%
2,NC(=O)c1cc([N+](=O)[O-])cc([N+](=O)[O-])c1N,inactive: 0.13%
3,CN(C(=O)Cc1ccc(Cl)c(Cl)c1)[C@H]1CCCC[C@H]1N1CCCC1,inactive: -0.18%
4,Cc1ccc(N/C(=N/P(=O)(N2CCOCC2)N2CCOCC2)N2CCOCC2)cc1,inactive: -0.09%
5,COc1ccccc1OP(=O)(Nc1ccc(C)cn1)Oc1ccccc1OC,inactive: -0.08%
6,Cc1ccc(OP(=O)(Nc2nccs2)Oc2ccc(C)cc2)cc1,inactive: 0.08%
7,Clc1ccc(Cl)c(NC2=NCC(CBr)S2)c1 (centres undefined),inactive: -0.01%
8,CN1CCCC(OC(=O)C(c2ccccc2)c2ccccc2)C1 (centres undefined),inactive: -0.01%
9,CC(C)CC(=O)NC(Sc1ccc(Cl)cc1)C(Cl)(Cl)Cl (centres undefined),inactive: 0.1%
10,Nc1cc(N)c2nonc2c1[N+](=O)[O-],inactive: 0.2%
11,Oc1ccccc1CNc1ccccn1,inactive: -0.03%
12,Cc1c2non([O-])c-2c(C)[n+](=O)[n+]1[O-],inactive: -0.07%
13,O=C(NC(Sc1ccncn1)C(Cl)(Cl)Cl)c1ccccc1 (centres undefined),inactive: -0.24%
14,O=P1(Nc2nc3ccc(Cl)cc3s2)COc2ccccc2O1 (centres undefined),inactive: 0.02%
15,CCOc1ccc(C2=NCC(CBr)S2)cc1 (centres undefined),inactive: 0.08%
16,CC(C)(C)C(=O)NC(Sc1ccccc1)C(Cl)(Cl)Cl (centres undefined),inactive: -0.02%
17,CC(=O)c1ccc(N2CC2c2ccncc2)cc1 (centres undefined),inactive: -0.02%
18,Cc1ccccc1CN(C)C(=O)COC(=O)C(O)(c1ccccc1)c1ccccc1,inactive: 0.21%
19,C[C@@H]1C=CCP(=O)(Oc2ccccc2)O1 (some centres undefined),inactive: -0.12%
20,C[C@H]1OP(=O)(Oc2ccccc2)C[C@@H]2O[C@@H]21 (some centres undefined),inactive: -0.08%
21,CC(=O)Nc1ccc([As](=O)(O)O)c(O)c1,inactive: 0.52%
22,CC(=O)Nc1ccc(Oc2c([N+](=O)[O-])cc([N+](=O)[O-])cc2[N+](=O)[O-])cc1,inactive: -0.01%
23,CCNC(=S)/N=C(\N)N[N+](=O)[O-],inactive: -0.04%
24,O=C(NC1CCS(=O)(=O)C1)NP(=S)(Oc1ccccc1)Oc1ccccc1 (centres undefined),inactive: 0.08%
25,c1ccc(-c2nn[nH]n2)c(-c2nn[nH]n2)c1,inactive: 0.15%

row,Compound,inhibition
1,CCOC(=O)NC(Sc1ccccc1)C(Cl)(Cl)Cl (centres undefined),inactive: 0.22%
2,Cc1ccc(NP(=O)(Oc2cccc(C)c2)Oc2cccc(C)c2)nc1,inactive: 0.15%
3,COC(=O)c1cc2c(s1)N=C(c1ccccc1)N(C)P2(=O)N1CCOCC1 (centres undefined),inactive: -0.02%
4,Cc1ccc(OP(=O)(Nc2ccccn2)Oc2ccc(C)cc2)cc1,inactive: -0.02%
5,CC(=O)NC(SC(=S)N(CC(C)C)CC(C)C)C(Cl)(Cl)Cl (centres undefined),inactive: -0.26%
6,O=C(OC1CN2CCC1CC2)c1ccccc1 (centres undefined),inactive: -0.02%
7,CCC(=O)N1C2C3N(C(=O)CC)C1C1N(C(=O)CC)C(C(N1C(=O)CC)N3C(=O)CC)N2C(=O)CC,inactive: 0.02%
8,Cc1ccccc1OP(=O)(Nc1ccccn1)Oc1ccccc1C,inactive: -0.04%
9,CC(NC(=O)COC(=O)C(O)(c1ccccc1)c1ccccc1)c1ccccc1 (centres undefined),inactive: 0.53%
10,CN(C)C(=O)Oc1noc2ccccc12,inactive: 0.2%
11,O=P(Nc1ccccn1)(c1ccc(Br)cc1)c1ccc(Br)cc1,inactive: -0.03%
12,CN(C)C1(CNC(=O)c2ccc(Cl)c(S(N)(=O)=O)c2)CCCCC1,inactive: -0.11%
13,O=P(Nc1nc2ccccc2s1)(c1ccccc1)c1ccccc1,inactive: -0.13%
14,C[C@H]1OP(=O)(Oc2ccccc2)[C@H](O)[C@H](O)[C@H]1N=[N+]=[N-] (some centres undefined),inactive: -0.12%
15,O=[N+]([O-])c1ccc(O)c(/C=N/Nc2ccc([N+](=O)[O-])cc2[N+](=O)[O-])c1,inactive: 0.04%
16,O=[N+]([O-])c1ncn(CCn2cnc([N+](=O)[O-])n2)n1,inactive: -0.06%
17,CC(=O)NC(SC(=S)N(C)C)C(Cl)(Cl)Cl (centres undefined),inactive: -0.04%
18,O=[As](O)(c1ccccc1)c1ccc(O)cc1,inactive: 0.16%
19,Nc1ccc([As](=O)(O)c2ccc([N+](=O)[O-])cc2)cc1,inactive: 0.01%
20,C(Cc1nn[nH]n1)Cc1nn[nH]n1,inactive: -0.18%
21,O=C(OC1CN2CCC1CC2)c1cccc(Cl)c1 (centres undefined),inactive: 0.04%
22,CC(C)C(=O)NC(Sc1ccccc1)C(Cl)(Cl)Cl (centres undefined),inactive: 0.37%
23,O=P(Nc1nccs1)(c1ccccc1)c1ccccc1,inactive: 0.01%
24,c1nnnn1CCn1cnnn1,inactive: 0.15%
